Test results taken from US20250319108A1, “COMBINATIONS” (AN2 Therapeutics, Inc., priority 2021, published 2025).

Test system: M. avium ATCC 700898
Type: cell-based
Details: for +EBO (2 × MIC) Resistance Frequency: drug at its selection concentration plus EBO at 2 × MIC; for Monotherapy Resistance Frequency: selection concentration CLR 32, RFB 2, AMK 128, EMB 24 mg/L
Description: Resistant colonies were confirmed by replica plating on agar plates containing antibiotic at the same concentration used to select resistance. Control plates containing no drug were prepared for inoculum determination. The RF was calculated by dividing the total CFU/mL of resistant colonies by the total CFU/mL of the inoculum.

| Structure (SMILES) | +EBO (2 × MIC) Resistance Frequency | Monotherapy Resistance Frequency |
| --- | --- | --- |
| NCC[C@H](O)C(=O)N[C@@H]1C[C@H](N)[C@@H](O[C@H]2O[C@H](CN)[C@@H](O)[C@H](O)[C@H]2O)[C@H](O)[C@H]1O[C@H]1O[C@H](CO)[C@@H](O)[C@H](N)[C@H]1O [AMK, Amikacin] | <1.49 × 10^−10 | 1.21 × 10^−8 |
| CC[C@H]1OC(=O)[C@H](C)[C@@H](O[C@H]2C[C@@](C)(OC)[C@@H](O)[C@H](C)O2)[C@H](C)[C@@H](O[C@@H]2O[C@H](C)C[C@H](N(C)C)[C@H]2O)[C@](C)(OC)C[C@@H](C)C(=O)[C@H](C)[C@@H](O)[C@]1(C)O [CLR, Clarithromycin] | <1.49 × 10^−10 | 1.59 × 10^−7 |
